Experimental data published in patent US8497361B2, “Topoisomerase binding probe and method of use” (priority 2010, dated 2013).

The chains behind the UniProt entries cited, without tags or fusion partners. Residues count along the entry.
UniProt Q5NHE7, 1-805: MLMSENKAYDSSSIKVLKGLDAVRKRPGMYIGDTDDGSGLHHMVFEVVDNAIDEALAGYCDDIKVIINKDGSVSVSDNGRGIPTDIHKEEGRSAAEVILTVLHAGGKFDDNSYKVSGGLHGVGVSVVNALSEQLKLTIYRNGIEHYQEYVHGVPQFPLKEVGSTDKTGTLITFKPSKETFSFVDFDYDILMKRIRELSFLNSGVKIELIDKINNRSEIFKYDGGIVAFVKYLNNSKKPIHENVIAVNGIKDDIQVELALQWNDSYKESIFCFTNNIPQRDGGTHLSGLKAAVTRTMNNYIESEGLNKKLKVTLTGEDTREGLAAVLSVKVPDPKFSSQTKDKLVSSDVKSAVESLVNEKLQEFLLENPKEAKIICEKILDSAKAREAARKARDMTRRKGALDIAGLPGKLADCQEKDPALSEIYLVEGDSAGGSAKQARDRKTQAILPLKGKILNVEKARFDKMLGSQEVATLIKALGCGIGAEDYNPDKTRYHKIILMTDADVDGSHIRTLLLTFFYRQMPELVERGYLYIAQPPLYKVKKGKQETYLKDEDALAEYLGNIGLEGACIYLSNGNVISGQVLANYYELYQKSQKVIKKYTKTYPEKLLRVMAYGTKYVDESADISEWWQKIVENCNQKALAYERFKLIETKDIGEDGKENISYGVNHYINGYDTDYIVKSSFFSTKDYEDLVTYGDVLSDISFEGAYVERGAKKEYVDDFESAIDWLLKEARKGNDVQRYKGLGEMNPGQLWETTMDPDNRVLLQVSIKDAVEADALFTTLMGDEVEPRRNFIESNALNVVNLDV

Molecular target: F. tularensis GyrB (Francisella tularensis subsp. tularensis, UniProt Q5NHE7)
Assay: biochemical
Assay type: binding

## CO[C@@H]1[C@@H](OC(N)=O)[C@@H](O)[C@H](Oc2ccc3c(O)c(NC(=O)c4ccc(O)c(CC=C(C)C)c4)c(=O)oc3c2C)OC1(C)C [novobiocin]
  Ki: 11 nM
